Reference: patent publication US20020173475A1 (priority 2001, published 2002)

Test system: translation of the CAT reporter protein (p2CAT RNA) in HeLa cell extract
Details: for inhibition of translation of the CAT reporter protein: HeLa cell extract; for ability to inhibit translation: peptides added at 20, 40 and 60 μM, no concentration stated for the result

## AALEAKICHQIEYQFGDF
Peptide at 60 μM
  inhibition of translation of the CAT reporter protein: inhibited
  ability to inhibit translation: diminished

## AALEAQICQQIEYYFGDF
Peptide at 40 and 60 μM
  inhibition of translation of the CAT reporter protein: effective at inhibiting translation

## AALEAKICHQIEQQQGDQ
  ability to inhibit translation: inhibitory activity was also lost

## AALEAKICHQIEYYFGDQ
Peptide at 40 and 60 μM
  inhibition of translation of the CAT reporter protein: inhibited
  ability to inhibit translation: diminished

## AALEAKICHQIEYYQGDF
  ability to inhibit translation: diminished

## QQQEAKICHQIEYYFGDF
Peptide at 40 μM
  inhibition of translation of the CAT reporter protein: slightly inhibitory
Peptide at 60 μM
  inhibition of translation of the CAT reporter protein: inhibitory

## AALQAKICHQIQYYFGQF
Peptide at 40 and 60 μM
  inhibition of translation of the CAT reporter protein: lost the ability to inhibit translation

Where two headings read alike, the source gives them in different places.
